Measurements reported in article PMC10496123, “Potent Antifungal Activity of Penta-O-galloyl-β-D-Glucose against Drug-Resistant Candida albicans, Candida auris, and Other Non-albicans Candida Species” (ACS Infectious Diseases, 2023).

Tests used:
[1] = cited from earlier work
[2] = 2,2′-Bipyridyl test of iron binding; format: physicochemical; conditions: pH 2.0, 10 μM ligand

## O=C(O[C@@H]1Cc2c(O)cc(O)cc2O[C@@H]1c1cc(O)c(O)c(O)c1)c1cc(O)c(O)c(O)c1 [EGCG, epigallocatechin-gallate]
[1]
  Iron (III) ions bound per molecule: up to two

## Cc1cc(C2CCCCC2)n(O)c(=O)c1 [ciclopirox]
[1]
  Iron-binding stoichiometry: three molecules of ciclopirox bind one iron ion

## O=C(OC[C@H]1O[C@@H](OC(=O)c2cc(O)c(O)c(O)c2)[C@H](OC(=O)c2cc(O)c(O)c(O)c2)[C@@H](OC(=O)c2cc(O)c(O)c(O)c2)[C@@H]1OC(=O)c1cc(O)c(O)c(O)c1)c1cc(O)c(O)c(O)c1 [PGG, penta-O-galloyl-β-D-glucose]
[2]; excess iron (III)
  Amount of iron (III) bound compared to EGCG: more than 2 ×
[2]; highest tested iron concentrations
  Fe^3+ ions reduced to Fe^2+ ions per molecule: 10
